Results of unrelated studies side by side (data: NIAID ChemDB).

All rows: tests in culture; agent: Mycobacterium tuberculosis

Blank or dashed fields: not listed here. ECn: concentration that inhibits the pathogen or its effect by n%. Conditions beyond the fields shown may differ between rows. MIC bound comes from a single tested concentration. Two numbers with a dash give a range or band. A number after MIC or MFC names an inhibition level or a share of isolates. Percent inhibition refers to the dose given; in toxicity tests it is the harm to the cells.

SMILES,conditions,read-out,tested at,strain,cell line,method,changes,result
CCOC(=O)c1ccc(NC(=O)C(CC(=O)Nc2ccc(C)cc2)C(C)=O)cc1,-,inhibition,5 µg/mL,H37Rv,-,-,-,0%
CCCCN1CCN(c2ccc3nc(-c4ccc5nc(-c6ccc(OC)c(OC)c6)[nH]c5c4)[nH]c3c2)CC1,-,MIC90,-,H37Rv,-,broth dilution / turbidity,-,14.59 µg/mL
N#Cc1ccc(Nc2nc(Oc3cccc4cccnc34)nc(N3CCN(Cc4ccccc4)CC3)n2)cc1C(F)(F)F,-,MIC95,-,H37Rv,-,agar,-,200 µg/mL
C=C(NC(=O)c1csc(-c2nc3c(cc2O)-c2nc(cs2)C(=O)N[C@@H]([C@@H](C)O)C(=O)N/C(=C(\C)OC)c2nc(cs2)C(=O)N[C@@H]2c4nc(cs4)C(=O)N[C@@H](COC(=O)c4c5c6c(cccc6n4O)COC(=O)[C@@H](O[C@H]4C[C@](C)(O)[C@H](N(C)C)[C@H](C)O4)[C@H]2OC5)c2nc-3cs2)n1)C(N)=O,-,MIC,-,Clinical Isolate 913,-,broth dilution,-,≤2.5 µM
N#Cc1ccc(Nc2nc(Oc3cccc4cccnc34)nc(N3CCN(c4cccc(Cl)c4)CC3)n2)cc1C(F)(F)F,-,MIC98,-,H37Rv,-,agar,-,25 µg/mL
Cc1ccccc1N=Nc1c(O)c2ccccc2n(C)c1=O,-,inhibition,6.25 µg/mL,H37Rv,-,resazurin,-,97%
C/C(=N\NC(=O)c1ccncc1)c1ccccc1,inside macrophages,EC50,-,Erdman,Macrophages,colony count,-,<0.074 µg/mL
CCOC(=O)c1ccc(NC(=O)C(CC(=O)Nc2ccccc2Cl)C(C)=O)cc1,-,inhibition,5 µg/mL,H37Rv,-,-,-,0%
CCOC(=O)C(=O)Nc1ccc(Cl)c(C(F)(F)F)c1,-,MIC bound,-,H37Rv,-,BACTEC,-,>12.5 µg/mL
O=C(N/N=C/c1cccc(F)c1)c1ccncc1,-,MBC,-,H37Rv,-,-,-,0.8 µg/mL
CC1COc2c(N3CCN(C(N)=NC#N)CC3)c(F)cc3c(=O)c(C(=O)O)cn1c23,-,MIC,-,ATCC 35820,-,broth dilution,-,0.312 µg/mL
Cc1ccc(CN2CCN(Cc3ccc(C)o3)C(C)C2)o1.Cl.Cl,-,MIC,-,H37Rv,-,BACTEC,-,≥12.5 µg/mL
Cn1c(=O)c(N=Nc2ccc(Cl)cc2)c(O)c2ccccc21,-,MIC,-,H37Rv,-,resazurin,-,>6.25 µg/mL
C/C(=N\NC(=O)c1ccncc1)c1ccc(F)cc1,-,MIC,-,Erdman,-,-,-,0.2 µg/mL
Cn1c(=O)c(N=Nc2ccc([N+](=O)[O-])cc2)c(O)c2ccccc21,-,inhibition,6.25 µg/mL,H37Rv,-,resazurin,-,20%
CO/C(C)=C1/NC(=O)[C@H]([C@@H](C)O)NC(=O)c2csc(n2)-c2cc(O)c(-c3nc(C(=O)NCCCN4CCOCC4)cs3)nc2-c2csc(n2)[C@@H]2COC(=O)c3c4c5c(cccc5n3O)COC(=O)[C@@H](O[C@H]3C[C@](C)(O)[C@H](N(C)C)[C@H](C)O3)[C@@H](OC4)[C@H](NC(=O)c3csc1n3)c1nc(cs1)C(=O)N2,-,MIC,-,Clinical isolate 16116,-,broth dilution,-,≤2.5 µM
CC(NNC(=O)c1ccncc1)c1ccc(F)cc1,-,MBC,-,Isoniazid-resistant,-,-,-,>50 µg/mL
COc1ccc(-c2cc(=O)c3ccc(OC)cc3o2)cc1,-,MIC,-,H37Rv,-,-,-,>12.5 µg/mL
CCOC(=O)c1cc(C(=O)c2ccc(OC)cc2)n2c1ccc1c3ncccc3ccc12,-,EC90,-,H37Rv,-,reporter gene / fluorescence,-,>200 µM
CO/C(C)=C1/NC(=O)[C@H]([C@@H](C)O)NC(=O)c2csc(n2)-c2cc(O)c(-c3nc(C(=O)NCCc4c[nH]cn4)cs3)nc2-c2csc(n2)[C@@H]2COC(=O)c3c4c5c(cccc5n3O)COC(=O)[C@@H](O[C@H]3C[C@](C)(O)[C@H](N(C)C)[C@H](C)O3)[C@@H](OC4)[C@H](NC(=O)c3csc1n3)c1nc(cs1)C(=O)N2,-,MIC,-,H37Rv,-,broth dilution,-,10–100 µg/mL
Cc1nn(C(=O)Cc2ccccc2)c2c1C(c1ccccc1[N+](=O)[O-])SC(N)=N2,-,inhibition,6.25 µg/mL,H37Rv,-,resazurin,-,-20%
O=c1[nH]c2c(Cl)c(Cl)ccc2c(O)c1N=Nc1ccc([N+](=O)[O-])cc1,-,inhibition,6.25 µg/mL,H37Rv,-,resazurin,-,89%
C[N+](C)(C)CC(=O)N/N=C/c1cccs1.[Cl-],-,inhibition,12.5 µg/mL,H37Rv,-,BACTEC,-,-4%
O=c1oc2ccccc2cc1-c1cs/c(=N\N=C\c2ccc(F)cc2)n1Cc1ccccc1,-,MIC,-,H37Rv,-,-,-,>6.25 µg/mL
O=C1CC(SC(=S)N2CCOCC2)C(=O)N1,-,MIC,-,KM-R,-,-,-,3.2 µg/mL
Nc1ncccc1/C=C/C(=O)c1cc(Cl)ccc1O,-,MIC,-,H37Rv,-,-,-,>12.5 µg/mL
N#Cc1ccc(Nc2nc(Oc3cccc4cccnc34)nc(N3CCN(c4cccc(C(F)(F)F)c4)CC3)n2)cc1C(F)(F)F,-,MIC99,-,H37Rv,-,BACTEC,-,6.25 µg/mL
O=c1c(O)c(-c2ccccc2)oc2ccc(I)cc12,-,MIC,-,H37Rv,-,-,-,>12.5 µg/mL
O=P(O)(O)Oc1c(O)c2ccccc2c2ccccc12,-,inhibition,6.25 µg/mL,H37Rv,-,resazurin,-,100%
CCOC(=O)c1ccc(NC(=O)CC(C(C)=O)C(=O)Nc2ccc(C(=O)OCC)cc2)cc1,-,inhibition,30 µg/mL,H37Rv,-,-,-,0%
Cc1ccc(N=Nc2c(O)c3c(Cl)ccc(Cl)c3[nH]c2=O)cc1,-,inhibition,6.25 µg/mL,H37Rv,-,resazurin,-,11%
O=C(O)c1cnc(Cl)cn1,-,MIC,-,ATCC35801,-,-,-,64 µg/mL
O=c1oc2ccccc2cc1-c1cs/c(=N\N=C\c2ccc(Br)cc2)n1Cc1ccccc1,-,inhibition,6.25 µg/mL,H37Rv,-,-,-,<11%
OC1(c2ccccc2)c2ccccc2N=C2N(C3=NCCN3)CCN21,-,inhibition,6.25 µg/mL,H37Rv,-,resazurin,-,50%
CC(=O)C(CC(=O)Nc1ccc(Cl)cc1)C(=O)Nc1cccc2ccccc12,-,inhibition,5 µg/mL,H37Rv,-,-,-,0%
COc1ccc(C(=O)/C=C/c2cccc(I)c2)c(O)c1,-,MIC,-,H37Rv,-,-,-,>12.5 µg/mL
N#Cc1ccc(Nc2nc(Oc3cccc4cccnc34)nc(N3CCOCC3)n2)cc1C(F)(F)F,-,MIC,-,H37Rv,-,BACTEC,-,>6.25 µg/mL
CN1CC(O)C2=CC(=O)C(=O)C=C21,-,MIC bound,-,H37Rv,-,BACTEC,-,>12.5 µg/mL
CO[C@H]1/C=C/O[C@@]2(C)Oc3c(C)c(O)c4c(=O)c(c5oc6cc(N7CCN(CC(C)C)CC7)cc(=O)c6nc5c4c3=C2O)NC(=O)/C(C)=C\C=C\[C@H](C)[C@H](O)[C@@H](C)[C@@H](O)[C@@H](C)[C@H](OC(C)=O)[C@@H]1C,-,MIC,-,TN728,-,-,-,<1 µg/mL
COc1ccc(CN2CCN(c3nc(Nc4ccc(C#N)c(C(F)(F)F)c4)nc(Oc4cccc5cccnc45)n3)CC2)c(OC)c1OC,-,MIC,-,H37Rv,-,BACTEC,-,>6.25 µg/mL
CCOC(=O)c1cc(C(=O)c2ccc(Br)cc2)n2c1ccc1c3ncccc3ccc12,-,EC90,-,H37Rv,-,reporter gene / fluorescence,-,>100 µM
O=c1oc2ccc(Br)cc2cc1-c1cs/c(=N\N=C\c2ccc(Br)cc2)n1Cc1ccccc1,-,MIC,-,H37Rv,-,-,-,>6.25 µg/mL
CO[C@H]1/C=C/O[C@@]2(C)Oc3c(C)c(O)c4c(O)c(c(/C=N/N5CCN(C)CC5)c(O)c4c3C2=O)NC(=O)/C(C)=C\C=C\[C@H](C)[C@H](O)[C@@H](C)[C@@H](O)[C@@H](C)[C@H](OC(C)=O)[C@@H]1C,-,EC50,-,H37Rv,-,reporter gene / fluorescence,-,0.0036 µM
CCOc1cc(O)c(C(=O)/C=C/c2cc(OC)c(OC)c(OC)c2)c(O)c1,-,MIC,-,H37Rv,-,-,-,>12.5 µg/mL
CO[C@H]1/C=C/O[C@@]2(C)Oc3c(C)c(O)c4c(O)c(c(/C=N/N5CCN(C)CC5)c(O)c4c3C2=O)NC(=O)/C(C)=C\C=C\[C@H](C)[C@H](O)[C@@H](C)[C@@H](O)[C@@H](C)[C@H](OC(C)=O)[C@@H]1C,-,MIC,-,Clinical isolate 565,-,broth dilution,Multidrug-resistant,>10 µM
COc1cc(/C=N/N=c2\scc(-c3cc4cc(Br)ccc4oc3=O)n2Cc2ccccc2)ccc1O,-,inhibition,6.25 µg/mL,H37Rv,-,-,-,<11%
Cc1ccc(N=Nc2c(-c3ccccc3)nn(C(=S)S)c2-c2ccccc2)cc1,-,MIC,-,H37Rv,-,BACTEC,-,≥12.5 µg/mL
NO,-,MIC,-,H37Rv,-,-,-,17.5 µg/mL
O=c1cc(-c2ccc(Cl)c([N+](=O)[O-])c2)oc2ccccc12,-,MIC,-,H37Rv,-,-,-,>12.5 µg/mL
CO/C(C)=C1/NC(=O)[C@H]([C@@H](C)O)NC(=O)c2csc(n2)-c2cc(OC)c(-c3nc(C(=O)NCCCN4CCOCC4)cs3)nc2-c2csc(n2)[C@@H]2COC(=O)c3c4c5c(cccc5n3O)COC(=O)[C@@H](O[C@H]3C[C@](C)(O)[C@H](N(C)C)[C@H](C)O3)[C@@H](OC4)[C@H](NC(=O)c3csc1n3)c1nc(cs1)C(=O)N2,-,MIC,-,Clinical isolate 565,-,broth dilution,Multidrug-resistant,≤1 µM
CC1CC2=C(C(=O)c3ccccc3C2=O)C(C)O1,-,inhibition,12.5 µg/mL,H37Rv,-,BACTEC,-,20%
C/C(=N\NC(=O)c1ccncc1)c1ccccc1F,-,MIC,-,H37Rv (isoniazid-resistant),-,-,-,>31.25 µg/mL
O=c1c(I)c(-c2ccccc2)oc2ccccc12,-,MIC,-,H37Rv,-,-,-,>12.5 µg/mL
N#Cc1ccc(Nc2nc(Oc3cccc4cccnc34)nc(N3CCN(C(c4ccccc4)c4ccc(Cl)cc4)CC3)n2)cc1C(F)(F)F,-,MIC99,-,H37Rv,-,BACTEC,-,6.25 µg/mL
CC(=O)NC1C(=O)OC(C(O)CO)C1O,-,MIC bound,-,H37Rv,-,BACTEC,-,>12.5 µg/mL
O=C(/C=C/c1ccccc1Br)c1ccccc1O,-,MIC,-,H37Rv,-,-,-,>12.5 µg/mL
C[C@@H]1C(=O)OCC2=CCN3CC[C@@H](OC(=O)[C@@H](C)[C@@]1(C)O)[C@@H]23,-,inhibition,12.8 µg/mL,H37Rv,-,BACTEC,-,5%
COC(=O)c1c(C(=O)OC)c2ccc3c4ncccc4ccc3n2c1C(=O)c1ccc([N+](=O)[O-])cc1,-,EC50,-,H37Rv,-,reporter gene / fluorescence,-,>100 µM
O=[N+]([O-])c1ccc(N=NNc2ccc([N+](=O)[O-])cc2Br)c(Br)c1,-,EC50,-,H37Ra-lux,-,luminescence,-,0.88 µM
CC1=NN(c2ccccc2)C(=O)C1N=Nc1c(O)cc(S(=O)(=O)O)c2ccccc12,-,MIC bound,-,H37Rv,-,BACTEC,-,>12.5 µg/mL
N#Cc1ccc(Nc2nc(Oc3cccc4cccnc34)nc(N3CCN(c4ccccn4)CC3)n2)cc1C(F)(F)F,-,MIC,-,H37Rv,-,BACTEC,-,>6.25 µg/mL
CC1=CC(=Nc2ccc(N(C)C)cc2)C=C(C)C1=O,-,MIC bound,-,H37Rv,-,resazurin,-,<6.25 µg/mL
CO[C@H]1/C=C/O[C@@]2(C)Oc3c(C)c(O)c4c(=O)c(c5oc6cc(N7CCN(CC(C)C)CC7)cc(=O)c6nc5c4c3=C2O)NC(=O)/C(C)=C\C=C\[C@H](C)[C@H](O)[C@@H](C)[C@@H](O)[C@@H](C)[C@H](OC(C)=O)[C@@H]1C,-,MIC,-,31 (rifampicin-resistant),-,-,-,4 µg/mL
CC[C@H](C)[C@H](N)C(=O)O,-,inhibition,12.5 µg/mL,H37Rv,-,BACTEC,-,-5%
COC(=O)c1c(C(=O)OC)c2ccc3c4ncccc4ccc3n2c1C(=O)c1ccccc1,-,MIC,-,H37Rv,-,reporter gene / fluorescence,-,>20 µM
O=C(CCCC(=O)NNC(=O)Nc1ccc(Cl)cc1)NNC(=O)Nc1ccc(Cl)cc1,-,MIC,-,H37Rv,-,BACTEC,-,≥12.5 µg/mL
O=C(/C=C/c1ccc(Br)cc1)c1ccccc1O,-,MIC,-,H37Rv,-,-,-,>12.5 µg/mL
Cc1cc(C)c(C2=NO[C@@H]3[C@H]2C(=O)C=C2N(Cc4ccccc4)CCO[C@@]23O)c(C)c1,-,inhibition,12.5 µg/mL,H37Rv,-,BACTEC,-,0%
O=C(NNCc1ccccc1)c1ccncc1,-,MIC,-,H37Rv (rifampin-resistant),-,-,-,1.95 µg/mL
CN1[C@@H]2C[C@H]3C[C@H]1[C@H](O)[C@H]2O3,-,MIC bound,-,H37Rv,-,BACTEC,-,>12.5 µg/mL
Cc1ccc(C(=O)[C@@H]2[C@H]3C(=O)N(c4ccccc4)C(=O)[C@H]3[C@H]3C=Cc4c(ccc5cccnc45)N32)cc1,-,MIC,-,H37Rv,-,reporter gene / fluorescence,-,>200 µM
Cc1c(N)nc(C(CC(N)=O)NCC(N)C(N)=O)nc1C(=O)NC(C(=O)NC(C)C(O)CC(=O)NC(C(=O)NC(OC1OC(C)C(N)C(O)C1O)C(O)c1nc(-c2nc(C(=O)NCCC[S+](C)C)cs2)cs1)C(C)O)C(OC1OC(CO)C(O)C(O)C1OC1OC(CO)C(O)C(OC(N)=O)C1O)c1cnc[nH]1.Cl.Cl.Cl.[Cl-],-,inhibition,12.8 µg/mL,H37Rv,-,BACTEC,-,100%
O=C(NN=C1CCCCC1)c1ccncc1,-,MIC,-,Isoniazid-resistant,-,-,-,>0.75 µg/mL
CC[N+](CC)=c1cc2oc3cc(N(C)C)ccc3nc-2cc1C.[Cl-],-,MIC,-,H37Rv,VERO,BACTEC,-,6.25 µg/mL
CC(=O)c1ccc(N=Nc2c(O)c3cc(Cl)ccc3[nH]c2=O)cc1,-,MIC,-,H37Rv,-,resazurin,-,>6.25 µg/mL